Test results published in patent US20040039047A1 (priority 1998, published 2004).

Tests used:
[1] = tested on: human epidennoid cells, virally infected with HSV-2; details: cited from earlier work; for Trichothecene in vitro concentration, Inhibitory 100%: 100% inhibition of hyperactive protein synthesis; for inhibition of hyperactive protein synthesis: by ~5 ng/ml
[2] = tested on: human epidennoid cells, virally infected with HSV-2; details: concentrations of 10 ng/ml or less; cited from earlier work
[3] = tested on: human epidennoid cells, virally infected with HSV-2; assay: Cell viability / cytotoxic and toxic concentrations in the same in vitro model; details: ballpark guideline; for Trichothecene in vitro concentration, Cytotoxic Lo: lower end of cytotoxic range; for Trichothecene in vitro concentration, Cytotoxic Hi: upper end of cytotoxic range

Substance	Trichothecene in vitro concentration, Inhibitory 100% [1] [ng/mL]	inhibition of hyperactive protein synthesis [1] [%]	cell viability [2]	Trichothecene in vitro concentration, Cytotoxic Lo [3] [ng/mL]	Trichothecene in vitro concentration, Cytotoxic Hi [3] [ng/mL]	Trichothecene in vitro concentration, Inhibitory 80% ([1]; 80% inhibition of hyperactive protein synthesis) [ng/mL]
Satratoxin G	5.0	100	did not reduce cell viability	6	10	–
Roridin A	5.0	100	did not reduce cell viability	6	10	2.0
